Pooled drug test results. Numbers come from NIAID ChemDB, via PubChem.

All rows: growth or infection tests

Rows are shuffled and stem from different studies. Percent inhibition refers to the dose given; in toxicity tests it is the harm to the cells. a–b is a range or a potency band. ECn is the concentration giving n% inhibition of infection, replication or growth. A number after MIC or MFC names an inhibition level or a share of isolates.

O=C1/C(=C/c2ccccc2)Oc2cc(O)ccc21 ; species: Cryptosporidium parvum ; read-out: inhibition ; tested at: 25 µM ; result: 17%
Cn1nc(Cc2ccc(Cl)cc2)c2ccccc2c1=O ; species: Cryptococcus neoformans ; strain: Clinical isolate (IM 972724) ; read by: broth dilution ; read-out: MFC ; result: 15.6 µg/mL
O=C1COc2cc(O)ccc21 ; species: Cryptosporidium parvum ; read-out: inhibition ; tested at: 25 µM ; result: 10%
Cn1cc2c(n1)C(=O)c1cc3ccccc3c(O)c1C2=O ; species: Cryptosporidium parvum ; read-out: inhibition ; tested at: 50 µM ; result: <10%
Oc1ccccc1N=Cc1cccc(O)c1O ; species: Cryptococcus neoformans ; strain: ATCC 24067 ; read by: broth dilution ; read-out: MIC ; result: 4 µg/mL
CC[C@@H](C(=O)[C@@H](C)[C@@H](O)[C@H](C)CCc1ccc(C)c(O)c1C(=O)O)[C@H]1O[C@](CC)([C@H]2CC[C@](O)(CC)[C@H](C)O2)C[C@@H]1C ; species: Cryptosporidium parvum ; strain: IOWA ; cells: MDCK ; read by: luminescence ; read-out: inhibition ; tested at: 0.02 µg/mL ; result: 0%
CC(=O)OC[C@H]1O[C@@H](O[C@@H]2[C@@H](N=[N+]=[N-])[C@H](O)[C@H](O)[C@H]3OC(C)(C)O[C@H]32)[C@H](OC(C)=O)[C@@H](OC(C)=O)[C@H]1OC(C)=O ; species: Cryptococcus neoformans ; strain: ATCC 32264 ; read by: broth dilution / turbidity ; read-out: inhibition ; tested at: 125 µg/mL ; result: 17.35%
O=C1/C(=C/c2ccc(O)cc2O)Oc2cc(O)ccc21 ; species: Cryptosporidium parvum ; read-out: EC50 ; result: 10–25 µM
Cn1ncc2c1C(=O)c1c(O)c3c(c(O)c1C2=O)CCCC3 ; species: Cryptosporidium parvum ; read-out: inhibition ; tested at: 100 µM ; result: <10%
CCOC(=O)c1c(C)nc(OCCCNc2ccnc3cc(Cl)ccc23)nc1-c1ccccc1 ; species: Cryptococcus gattii ; strain: ATCC 32608 ; read-out: MIC99 ; result: 16 µg/mL
COc1cc(/C=C2\Oc3cc(O)cc(O)c3C2=O)ccc1O ; species: Cryptosporidium parvum ; read-out: inhibition ; tested at: 25 µM ; result: 45%
NCCCC[C@H](NC(=O)[C@@H](N)CCCCN)C(=O)N[C@@H](CCC(N)=O)C(=O)N[C@@H](CCCN=C(N)N)C(=O)O ; species: Cryptococcus neoformans ; strain: ATCC 32264 ; read-out: inhibition ; tested at: 50 µM ; result: 92%
COc1cc(O)c2c(O)c(C(=O)c3ccccc3)oc2c1 ; species: Cryptosporidium parvum ; read-out: EC50 ; result: >50 µM
COc1cccc2c1C(=O)c1cnn(C)c1C2=O ; species: Cryptosporidium parvum ; read-out: inhibition ; tested at: 100 µM ; result: <10%
C=C/C=C/c1cc(OC)cc(=O)o1 ; species: Cryptosporidium parvum ; read-out: inhibition ; tested at: 25 µM ; result: 93%
Oc1cccc(C=Nc2ccccc2O)c1 ; species: Cryptococcus gattii ; strain: 23/10993 ; read-out: MIC99 ; result: 4 µg/mL
CC[C@H]1OC(=O)[C@H](C)[C@@H](O[C@H]2C[C@@](C)(OC)[C@@H](O)[C@H](C)O2)[C@H](C)[C@@H](O[C@@H]2O[C@H](C)C[C@H](N(C)C)[C@H]2O)[C@](C)(O)C[C@@H](C)CN(C)[C@H](C)[C@@H](O)[C@]1(C)O ; species: Cryptosporidium parvum ; cells: A549 ; read-out: inhibition ; tested at: 8 µg/mL ; result: 25.5%
COc1cc(/C=C2\Oc3cc(O)cc(O)c3C2=O)cc(OC)c1O ; species: Cryptosporidium parvum ; read-out: EC50 ; result: 25–50 µM
C[C@@H](c1nc(-c2ccc(C#N)cc2)cs1)[C@](O)(Cn1cncn1)c1cc(F)ccc1F ; species: Cryptococcus gattii ; strain: VG IIb ; read by: broth dilution ; read-out: MIC50 ; result: 0.125 µg/mL
CCOC(=O)c1c(C)nc(NCCCCNc2ccnc3cc(Cl)ccc23)nc1-c1ccc(F)cc1 ; species: Cryptococcus neoformans ; strain: ATCC 28957 ; read-out: MIC99 ; result: 1.4 µg/mL
COc1ccc(/C=C2\Oc3cc(O)cc(O)c3C2=O)cc1O ; species: Cryptosporidium parvum ; read-out: inhibition ; tested at: 50 µM ; result: 95%
O=[N+]([O-])c1ccc(C=Nc2ccccc2O)cc1 ; species: Cryptococcus gattii ; strain: L-28/02 ; read-out: MIC99 ; result: 16 µg/mL
CN[C@H]1CC[C@@H](c2ccc(Cl)c(Cl)c2)c2ccccc21 ; species: Cryptococcus neoformans ; strain: UM4 ; read by: broth dilution ; read-out: MIC90 ; result: 4 µg/mL
Oc1ccccc1C=Nc1ccccc1O ; species: Cryptococcus gattii ; strain: 1913 ER ; read-out: MIC99 ; result: 11.3 µg/mL
CCC(C)CC(C)CCCCCCCCC(=O)N[C@H]1C[C@@H](O)[C@H](NCCN)NC(=O)[C@@H]2[C@@H](O)CCN2C(=O)[C@H]([C@H](O)CCN)NC(=O)[C@H]([C@H](O)[C@@H](O)c2ccc(O)cc2)NC(=O)[C@@H]2C[C@@H](O)CN2C(=O)[C@H]([C@@H](C)O)NC1=O ; species: Cryptococcus gattii ; strain: CBS 11247 ; read by: broth dilution ; read-out: MIC ; result: 16 µg/mL
CCOC(=O)c1cnc(NCCCCNc2ccnc3cc(Cl)ccc23)nc1C ; species: Cryptococcus neoformans ; strain: WP ; read-out: MIC99 ; result: 5.7 µg/mL
COc1cc(C)cc2c1C(=O)c1cnn(C)c1C2=O ; species: Cryptosporidium parvum ; read-out: inhibition ; tested at: 25 µM ; result: <10%